Compound potency records, mixed from different reports. Data source: NIAID ChemDB in PubChem.

Common to all: host cell toxicity; cells: CEM; read by: MTT; read-out: CC50

CCn: concentration that lowers growth or viability of the cells by n%.

{"smiles": "COc1ccc2c(c1)C(=O)C(C1=C(Cl)C(=O)c3ccccc3C1=O)=C(Cl)C2=O", "result": "5.7 µM"}
{"smiles": "CC(C)=CCC[C@]1(C)C=Cc2c(ccc3c2C(=O)C(=O)C(C2=C(Cl)C(=O)c4ccccc4C2=O)=C3O)O1", "result": "2.7 µM"}
{"smiles": "CCCNC(=O)CN(C)C(=O)c1ccc(Sc2ccc(F)cc2)c([N+](=O)[O-])c1", "result": "70 µM"}
{"smiles": "COC1=C(C2=C(Cl)C(=O)c3ccccc3C2=O)C(=O)c2ccccc2C1=O", "result": "2.8 µM"}
{"smiles": "CCNC(=O)NC(=O)C(C)OC(=O)c1c2c(nc3ccccc13)C(Cc1ccc(OC)c(OC)c1)CC2", "result": "100 µM"}
{"smiles": "COc1ccc2c(c1)C(=O)C(Cl)=C(C1=C(Cl)C(=O)c3ccccc3C1=O)C2=O", "result": "12 µM"}
{"smiles": "Cc1[nH]c2ccc3c(c2c(=O)c1O[C@@H]1O[C@H](CO)[C@@H](O)[C@H](O)[C@H]1O)[C@@H]1CC[C@H](O)[C@@]3(c2ccccc2)O1", "result": ">100 µM"}
{"smiles": "COC(=O)[C@H](C)NP(=O)(OC[C@@H]1C=C[C@H](n2cc(CCCNC(=O)C(F)(F)F)c(=O)[nH]c2=O)O1)Oc1ccccc1", "result": "4.3 µM"}
{"smiles": "CC(C)(C)NC(=O)[C@@H]1CN(Cc2cccnc2)CCN1C[C@@H](O)C[C@@H](Cc1ccccc1)C(=O)N[C@H]1c2ccccc2C[C@H]1OC(=O)CCCCOc1ccc(C[C@H](N)C(=O)O)cc1", "result": ">100 µM"}
{"smiles": "COCCOC(=O)C1C(c2ccc(F)cc2F)NC(=O)N(c2ccc(CC(=O)O)cc2)C1C", "result": ">72.3 µM"}
{"smiles": "COC(=O)[C@H](C)NP(=O)(OC[C@@H]1C=C[C@H](n2cc(CC(=O)NCCCCCCCCNC(=O)C(F)(F)F)c(=O)[nH]c2=O)O1)Oc1ccccc1", "result": ">100 µM"}
{"smiles": "CC(C)CN(C[C@@H](O)[C@H](Cc1ccccc1)NC(=O)CCc1c[nH]c2ccccc12)S(=O)(=O)c1ccc(Br)cc1", "result": "52.4 µM"}
{"smiles": "Cc1cn([C@H]2C=C[C@@H](COP(=O)(Nc3cc(C(=O)Nc4cc(C(=O)Nc5cc(C(=O)NCCC#N)n(C)c5)n(C)c4)n(C)c3)OC(C)C)O2)c(=O)[nH]c1=O", "result": "188 µM"}
{"smiles": "CC(=O)ONc1ccc(S(=O)(=O)N(CC(C)C)C[C@@H](O)[C@H](Cc2ccccc2)NC(=O)CCn2c(=O)oc3ccccc32)cc1", "result": ">100 µM"}
{"smiles": "COC(=O)Cc1cn([C@@H]2C=C[C@H](CO)O2)c(=O)[nH]c1=O", "result": ">100 µM"}
{"smiles": "CC(C)C(N)C(=O)O[C@@H](C[C@@H](Cc1ccccc1)C(=O)N[C@H]1c2ccccc2C[C@H]1O)CN1CCN(Cc2cccnc2)C[C@H]1C(=O)NC(C)(C)C", "result": ">100 µM"}
{"smiles": "CC(=O)ONc1ccc(S(=O)(=O)N(Cc2ccccc2)C[C@@H](O)[C@H](Cc2ccccc2)NC(=O)[C@H](C(C)C)N2C(=O)c3ccccc3C2=O)cc1", "result": ">100 µM"}
{"smiles": "COc1cc(OC)c2c(=O)cc(-c3ccc(OCCCN4CCN(C)CC4)c(NC(=O)CCCN(C)C)c3)n(C)c2c1", "result": ">100 µM"}
{"smiles": "Cn1cc(C(=O)O)c(=O)c2cc(F)c(N3CC=C(c4ccccc4)CC3)c(C(F)(F)F)c21", "result": "2.1 µM"}
{"smiles": "CC(C)(C)NC(=O)[C@@H]1CN(Cc2cccnc2)CCN1C[C@H](C[C@@H](Cc1ccccc1)C(=O)N[C@H]1c2ccccc2C[C@H]1O)OC(=O)COc1ccc(C[C@H](N)C(=O)O)cc1", "result": ">100 µM"}
{"smiles": "COc1ccc2[nH]c(=O)c(CN(Cc3cccnc3)S(=O)(=O)c3cccc4nsnc34)cc2c1", "result": ">1 µM"}
{"smiles": "COc1cc(OC)c2c(=O)cc(-c3ccc(OCCCN4CCCCC4)c(N)c3)n(C)c2c1", "result": ">100 µM"}
{"smiles": "Cc1cn([C@H]2C[C@H](N=[N+]=[N-])[C@@H](COP(=O)(Nc3cc(C(=O)Nc4cc(C(=O)NCCC(=N)N)n(C)c4)n(C)c3)OC3CCCCC3)O2)c(=O)[nH]c1=O", "result": ">200 µM"}
{"smiles": "O=C(Cc1cn([C@H]2C=C[C@@H](CO)O2)c(=O)[nH]c1=O)NCCCCCCCCNC(=O)c1c2ccccc2nc2ccccc12", "result": ">10 µM"}
{"smiles": "CC(=O)ONc1ccc(S(=O)(=O)N(CC(C)C)C[C@@H](O)[C@H](Cc2ccccc2)NC(=O)CCc2c[nH]c3ccccc23)cc1", "result": ">100 µM"}
{"smiles": "Cc1cn([C@H]2C=C[C@@H](COP(=O)(Nc3cc(C(=O)Nc4cc(C(=O)Nc5cc(C(=O)NCCC(=N)N)n(C)c5)n(C)c4)n(C)c3)OC(C)C)O2)c(=O)[nH]c1=O", "result": "133 µM"}
{"smiles": "CC1=NC(=O)C(CC(=O)NCc2ccc(F)cc2)C(C)=N1", "result": ">115.3 µM"}
{"smiles": "CCCCCCCCCCCCCCCC(=O)OCC(COC(=O)CCCCCCCCCCCCCCC)OC(=O)CCC(=O)O[C@@H]1Cc2ccccc2[C@@H]1NC(=O)[C@H](Cc1ccccc1)C[C@H](O)CN1CCN(Cc2cccnc2)C[C@H]1C(=O)NC(C)(C)C", "result": ">100 µM"}
{"smiles": "O=C(NCc1ccc(O)c(O)c1)c1ccc2ccc(C(=O)O)c(O)c2n1", "result": ">500 µM"}
{"smiles": "COC1=C(C2=C(Cl)C(=O)c3ccccc3C2=O)C(=O)c2ccc3c(c2C1=O)C=CC(C)(C)O3", "result": "3.5 µM"}
{"smiles": "CC1=C(/C=C/C(C)=C/C=C/C(C)=C/C(=O)O)C(C)(C)CCC1", "result": ">1 µM"}
{"smiles": "COc1ccc(N2CCN(NC(=O)c3ccc(C(F)(F)F)nc3Nc3cc(Cl)ccc3C)CC2)cc1", "result": ">50 µM"}
{"smiles": "Cc1c(OC(=O)CCCCOc2ccc(C[C@H](NC(=O)OC(C)(C)C)C(=O)O)cc2)cccc1C(=O)N[C@@H](CSc1ccccc1)[C@@H](CN1C[C@H]2CCCC[C@H]2C[C@H]1C(=O)NC(C)(C)C)OC(=O)CCCCOc1ccc(C[C@H](NC(=O)OC(C)(C)C)C(=O)O)cc1", "result": ">100 µM"}
{"smiles": "COc1cc(OC)c2c(=O)cc(-c3ccc(OCCCN4CCN(C)CC4)c(N)c3)n(C)c2c1", "result": ">100 µM"}
{"smiles": "COC1=C(C2=C(Br)C(=O)c3cc(OC)ccc3C2=O)C(=O)c2ccccc2C1=O", "result": "2.8 µM"}
{"smiles": "COc1cc(OC)c2c(=O)cc(-c3ccc(OCCCN)c(NC(=O)CCCN(C)C)c3)n(C)c2c1", "result": ">100 µM"}
{"smiles": "COc1ccc2ccc3c(c2c1)OC1(CCN(Cc2ccc(C#N)cc2)CC1)NC3=O", "result": "1 µM"}
{"smiles": "Cc1cccc(NC(=O)CN2CCN(C(=O)C3CCCN(C(=O)c4ccc(F)cc4)C3)CC2)c1C", "result": ">65 µM"}
{"smiles": "Cc1cn([C@H]2C=C[C@@H](COP(=O)(Nc3cc(C(=O)Nc4cc(C(=O)Nc5cc(C(=O)NCCC#N)n(C)c5)n(C)c4)n(C)c3)OC3CCCCC3)O2)c(=O)[nH]c1=O", "result": "192 µM"}
{"smiles": "O=P(O)(O)OP(=O)(O)OP(=O)(O)O", "result": ">100 µg/mL"}
{"smiles": "CC(=O)ONc1ccc(S(=O)(=O)N(Cc2ccccc2)C[C@@H](O)[C@H](Cc2ccccc2)NC(=O)CN2C(=O)c3ccccc3C2=O)cc1", "result": ">100 µM"}
{"smiles": "CC(C)C[C@H](NC(=O)OC(C)(C)C)C(=O)O[C@@H]1Cc2ccccc2[C@@H]1NC(=O)[C@H](Cc1ccccc1)C[C@H](O)CN1CCN(Cc2cccnc2)C[C@H]1C(=O)NC(C)(C)C", "result": ">100 µM"}

The last 5 rows once more:

{"smiles": "Cc1cccc(NC(=O)CN2CCN(C(=O)C3CCCN(C(=O)c4ccc(F)cc4)C3)CC2)c1C", "result": ">65 µM"}
{"smiles": "Cc1cn([C@H]2C=C[C@@H](COP(=O)(Nc3cc(C(=O)Nc4cc(C(=O)Nc5cc(C(=O)NCCC#N)n(C)c5)n(C)c4)n(C)c3)OC3CCCCC3)O2)c(=O)[nH]c1=O", "result": "192 µM"}
{"smiles": "O=P(O)(O)OP(=O)(O)OP(=O)(O)O", "result": ">100 µg/mL"}
{"smiles": "CC(=O)ONc1ccc(S(=O)(=O)N(Cc2ccccc2)C[C@@H](O)[C@H](Cc2ccccc2)NC(=O)CN2C(=O)c3ccccc3C2=O)cc1", "result": ">100 µM"}
{"smiles": "CC(C)C[C@H](NC(=O)OC(C)(C)C)C(=O)O[C@@H]1Cc2ccccc2[C@@H]1NC(=O)[C@H](Cc1ccccc1)C[C@H](O)CN1CCN(Cc2cccnc2)C[C@H]1C(=O)NC(C)(C)C", "result": ">100 µM"}

Lines come from different laboratories, so protocols vary.